{"source": "paper PMC12423841", "about": "(ACS Omega, 2025)", "key": {"[1]": {"molecular_target": "SBA.1 (SARS-CoV-2 S protein, Omicron BA.1 variant) (Severe acute respiratory syndrome coronavirus 2, UniProt P0DTC2, A67V/D614G/D796Y/DEL143-145/DEL211-211/DEL69-70/E484A/G142D/G339D/G446S/G496S/H655Y/INS214EPE/K417N/L212I/L981F/N440K/N501Y/N679K/N764K/N856K/N969K/P681H/Q493R/Q498R/Q954H/S371L/S373P/S375F/S477N/T478K/T547K/T95I/Y505H, form not given)", "format": "binding", "settings": "read-out: K D values SBA.1"}, "[2]": {"molecular_target": "SWuhan (SARS-CoV-2 S protein HexaPro, Wuhan-Hu-1 variant) (Severe acute respiratory syndrome coronavirus 2, UniProt P0DTC2, A892P/A899P/A942P/F817P/K986P/V987P)", "format": "binding", "settings": "read-out: K D values SWuhan"}}, "note": "pKd: −log10 of the molar value."}
{"substance": "iofendylate", "values": [{"measurement": "pKd", "setting": "[1]", "value": "< 3.00"}, {"measurement": "pKd", "setting": "[2]", "value": "< 3.00"}]}
